Data: patent US6110901A (priority 1992, dated 2000)

Target: Recombinant poliovirus RNA polymerase (Poliovirus type 1, UniProt P03300)
Assay: Poliovirus RNA-dependent RNA polymerase transcription assay with poly(A)-tailed RNA templates
Details: molar ratio 1:1 with the low molecular weight template

## Nc1ncnc2c1ncn2[C@@H]1O[C@H](COP(=O)(O)OP(=O)(O)OP(=O)(O)O)C[C@H]1O
  Inhibition of transcription with poliovirus RNA polymerase: less active inhibitor
